A mixed list of measured activities; the numbers were collected in NIAID ChemDB.

Shared fields: growth or infection tests; species: Mycobacterium smegmatis

Blank or dashed fields: not listed here. Two numbers with a dash give a range or band. A number after MIC or MFC names an inhibition level or a share of isolates. Conditions beyond the fields shown may differ between rows. ECn: concentration that inhibits the pathogen or its effect by n%. Percent inhibition refers to the dose given; in toxicity tests it is the harm to the cells.

CCCCCCCCCCCCCC#CC(=O)N(N)C(=O)c1ccncc1 ; strain: mc2155 ; read-out: MIC99 ; value: >200 µM
CCC1CN(c2c(F)cc3c(=O)[nH]c(=O)n(C4CC4)c3c2OC)CCN1 ; strain: WT ; read-out: MIC99 ; value: 100 µg/mL
CCCCCCCCCCCCCCCCC#CC(=O)O ; strain: mc2155 ; read-out: MIC99 ; value: 34 µM
Cc1ccccc1-c1cnc(-c2ccc(-c3ccccc3OC(F)(F)F)o2)[nH]1 ; read by: broth dilution / turbidity ; read-out: MIC100 ; value: 11–20 µg/mL
CCC(C)NCCNC(C)CC ; strain: ATCC 607 ; read-out: EC50 ; value: <125 µg/mL
COc1c(N2CC[C@@H](CN)C2)c(F)cc2c(=O)c(C(=O)O)cn(C3CC3)c12 ; strain: WT ; read-out: MIC99 ; value: 0.062 µg/mL
C[C@H](NCCN[C@H](C)c1ccccc1)c1ccccc1 ; strain: ATCC 607 ; read-out: inhibition ; tested at: 250 µg/mL ; value: 100%
CCc1cc(C(N)=S)ccn1 ; strain: MC^2 847 ; read-out: MIC ; value: 60 µg/mL
O=C(Nc1ccc(S(=O)(=O)Nc2nccs2)cc1)c1cc(-c2ccncc2)nc2ccccc12 ; read by: turbidity ; read-out: MIC80 ; value: 100 µM
Cc1cn(C/C=C\Cn2c(=O)n3c4c(cccc42)CC(N)C3)c(=O)[nH]c1=O ; strain: mc2155 ; read by: resazurin / absorbance ; read-out: EC50 ; value: >160 µg/mL
O=C(Nc1cccc([N+](=O)[O-])c1)Nc1ccc(Cl)c(C(F)(F)F)c1 ; read by: broth dilution / turbidity ; read-out: MIC90 ; value: 0.5 µg/mL
CCCCCCCCC#CCCCCCCC#CC(=O)O ; strain: mc22389 ; read-out: MIC99 ; value: >200 µM
CCc1nc(NCCCc2ccccc2)c2cc(C)sc2n1 ; strain: mc2155 ; mutations: cydA +EV ; read by: resazurin ; read-out: EC50 ; value: 0.41 µM
CC(C)C(C)NCCNC(C)C(C)C ; strain: ATCC 607 ; read-out: EC50 ; value: >250 µg/mL
Cc1ccc(NC(=O)c2cc(-c3ccco3)nc3ccccc23)cc1S(=O)(=O)N1CCOCC1 ; read by: turbidity ; read-out: MIC80 ; value: >100 µM
CC(C)NCCNc1ccccc1 ; strain: ATCC 607 ; read-out: inhibition ; tested at: 1000 µg/mL ; value: 0%
Cc1cn(C/C=C\Cn2c(=O)n3c4c(cccc42)CCC3)c(=O)[nH]c1=O ; strain: mc2155 ; read by: resazurin / absorbance ; read-out: EC50 ; value: >160 µg/mL
CCC1CN(c2c(F)cc3c(=O)c(C(=O)O)cn(C4CC4)c3c2OC)CCN1 ; strain: G89C mutant ; read-out: MIC99 ; value: 0.5 µg/mL
O=C(Nc1ccc(S(=O)(=O)Nc2nccs2)cc1)c1cccc(N2C(=O)c3ccccc3C2=O)c1 ; read by: turbidity ; read-out: MIC80 ; value: 80 µM
CCCCCCSCCCCCCCCCCCCC#CC(=O)O ; strain: mc2651 ; read-out: MIC99 ; value: 141 µM
CCCCCN(CCCCC)CCN(CCCCC)CCCCC ; strain: ATCC 607 ; read-out: EC50 ; value: <8 µg/mL
COc1ccc(C2=CSC(NC(=O)c3cccc(NS(=O)(=O)c4ccc(C)cc4)c3)N2)cc1 ; read by: turbidity ; read-out: MIC80 ; value: >100 µM
CCCCCCCCCCCCCC#CC(=O)OCC(O)CO ; strain: mc2651 ; read-out: MIC99 ; value: 6.1 µM
FC(F)(F)Oc1ccccc1-c1ccc(-c2nc(-c3ccccc3)c(Cl)[nH]2)o1 ; read by: broth dilution / turbidity ; read-out: MIC100 ; value: 20–50 µg/mL
COc1c(N2CC[C@@H](CN)C2)c(F)cn2c(=O)n(N)c(=O)c(C3CC3)c12 ; strain: D95Y mutant ; read-out: MIC99 ; value: 40 µg/mL
Cc1[nH]c(-c2ccc(-c3ccccc3F)s2)nc1-c1ccccc1 ; read by: broth dilution / turbidity ; read-out: MIC100 ; value: 11–20 µg/mL
O=C(Nc1ccc2c(c1)OCO2)c1cc2cccc([N+](=O)[O-])c2[nH]1 ; read by: PCR ; read-out: EC50 ; value: 56.7 µM
Cc1[nH]c(-c2ccc(-c3cccc(F)c3C)o2)nc1-c1ccccc1 ; read by: broth dilution / turbidity ; read-out: MIC100 ; value: 11–20 µg/mL
Cc1ccnc(NS(=O)(=O)c2ccc(NC(=O)c3cc(-c4ccc(Br)cc4)nc4ccccc34)cc2)n1 ; read by: turbidity ; read-out: MIC80 ; value: >100 µM
CCCCCCCCCCCCSCC#CC(=O)O ; strain: mc2651 ; read-out: MIC99 ; value: 46.3 µM
Cc1[nH]c(-c2ccc(-c3ccc(Cl)c(OC(F)(F)F)c3)o2)nc1-c1ccccc1 ; read by: broth dilution / turbidity ; read-out: MIC100 ; value: 20–50 µg/mL
CCCCCCCCCN(C)CCN(C)C ; strain: ATCC 607 ; read-out: inhibition ; tested at: 60 µg/mL ; value: 100%
O=C(Nc1ccc(S(=O)(=O)Nc2nccs2)cc1)Sc1ccc(Br)c2cccc(Cl)c12 ; read by: turbidity ; read-out: MIC80 ; value: >100 µM
O=c1[nH]c(=O)n(C/C=C\CN2c3cccc4c3N(CCC4)S2(=O)=O)cc1Br ; strain: mc2155 ; read by: resazurin / absorbance ; read-out: EC50 ; value: >160 µg/mL
CC(NCCNC(C)C(C)(C)C)C(C)(C)C ; strain: ATCC 607 ; read-out: EC50 ; value: >250 µg/mL
CC1(C)S[C@@H]2[C@H](NC(=O)[C@H](N)c3ccccc3)C(=O)N2[C@H]1C(=O)O ; strain: ML16 ; mutations: mspACD knockout ; read by: resazurin ; read-out: MIC90 ; value: >200 µg/mL
CCCCCCCCCCCCCCCC#CC(=O)OCCO ; strain: mc2651 ; read-out: MIC99 ; value: 2.3 µM
CCC(C)NCCNC(C)C ; strain: ATCC 607 ; read-out: EC50 ; value: <30 µg/mL
CCCCCCCCCCCCCCCCCC#CC(=O)O ; strain: mc2155 ; read-out: MIC99 ; value: >200 µM
CCc1nc(NC(C(=O)O)C(C)C)c2cc(C)sc2n1 ; strain: mc2155 ; read by: resazurin ; read-out: EC50 ; value: 52 µM

Repeating the final 6 entries:

SMILES	strain	mutations	read by	read-out	tested at	value
CC(NCCNC(C)C(C)(C)C)C(C)(C)C	ATCC 607	-	-	EC50	-	>250 µg/mL
CC1(C)S[C@@H]2[C@H](NC(=O)[C@H](N)c3ccccc3)C(=O)N2[C@H]1C(=O)O	ML16	mspACD knockout	resazurin	MIC90	-	>200 µg/mL
CCCCCCCCCCCCCCCC#CC(=O)OCCO	mc2651	-	-	MIC99	-	2.3 µM
CCC(C)NCCNC(C)C	ATCC 607	-	-	EC50	-	<30 µg/mL
CCCCCCCCCCCCCCCCCC#CC(=O)O	mc2155	-	-	MIC99	-	>200 µM
CCc1nc(NC(C(=O)O)C(C)C)c2cc(C)sc2n1	mc2155	-	resazurin	EC50	-	52 µM